Pooled drug test results. Numbers come from NIAID ChemDB, via PubChem.

Common to all: tests in culture; organism: Human cytomegalovirus; read by: plaque count; measure: EC50

a–b is a range or a potency band. ECn is the concentration giving n% inhibition of infection, replication or growth. Blank or dashed fields: not listed here. Lines come from different laboratories, so protocols vary.

smiles	cell line	strain or isolate	result
O=C(NCc1ccc(Cl)cc1)c1c[nH]c2ccc(CCCO)cc2c1=O		Clinical isolates	1 µM
CC(=O)c1c(-c2ccccc2)cc2ccccn12	MRC-5	AD169	>100 µM
Nc1nc2c(ncn2[C@@H]2C[C@H](CO)[C@H]2CO)c(=O)[nH]1	MRC-5	AD169 (ganciclovir foscarnet-susceptible)	4.45 µM
CCCCCCCCCCCCCCCCCCOCCOP(=O)(O)CO[C@H](CO)Cn1ccc(N)nc1=O	MRC-5	C8914-6 drug-resistant mutant	0.001 µM
Nc1nc(Cl)c2ncn(OCCOCP(=O)(O)O)c2n1	MRC-5	AD169	0.62 µM
Nc1cn(C=C2C[C@H]2CO)c(=O)[nH]c1=O	HFF	TOWNE	>100 µM
Nc1ncnc2c1ncn2C[C@@H](CO)OCP(=O)(O)O	HEL	AD169	0.28 µM
CC(C)c1ccc(O)c(O)c(=O)c1	HFF	AD169	1.3 µM
NC(=O)c1c(Cl)c(-c2cccnc2)n2c1CCCC2	HEL	LY9725 (ganciclovir-resistant)	0.0051 µM
O=C1c2ccccc2N(Cc2ccc(Cl)cc2)S(=O)(=O)N1CC1CCCCC1	MRC-5	AD169	5.9 µM
Nc1nc2c(ncn2COC(CO)CO)c(=O)[nH]1		25 isolates	3.51 µM
CCCCCCc1cc2cnc(OC3CCCC3)nc2o1	HEL	DAVIS	20 µM
CCCOC1=NS(=O)(=O)N(Cc2ccc(Cl)cc2)c2ccccc21	MRC-5	AD169	2.7 µM
COc1ccccc1CNC(=O)C1=Cc2ccncc2CC1	MRC-5	D16	23.7 µM
C#Cc1cn([C@H]2C[C@H](O)[C@@H](CO)O2)c(=O)[nH]c1=O	VERO		0.07 µM
Nc1nc2c(ncn2COC(CO)CO)c(=O)[nH]1	HFF		7.7 µM
CCCCN1C(=O)c2ccccc2N(CCCc2ccccc2)S1(=O)=O	MRC-5	AD169	2.3 µM
Nc1ccn(C[C@H]2COP(=O)(O)CO2)c(=O)n1	MRC-5	C9208/3-3-1	1.3 µM
CCCCN1C(=O)c2ccccc2N(C(=O)c2ccc(C)cc2)S1(=O)=O	MRC-5	AD169	2.8 µM
O=C(NCc1ccc(Cl)cc1)c1c[nH]c2ccc(CCCO)cc2c1=O		PHO	0.7 µM
Nc1nc2c(ncn2COC(CO)CO)c(=O)[nH]1	MRC-5	AD169	1.2 µM
CCOP(=O)(O)CCC(CO)OCn1cnc2c(=O)[nH]c(N)nc21	MRC-5	LA ganciclovir-susceptible	25 µg/mL
Nc1nc(N)c2ncn(OCC(CO)OCP(=O)(O)O)c2n1	MRC-5	AD169	>300 µM
Cn1cc(C(=O)NCc2ccc(Cl)cc2)c(=O)c2cc(CN3CCOCC3)ccc21	HFF	NE	0.2 µM
O=c1[nH]cnc2c1ncn2OCCOCP(=O)(O)O	MRC-5	AD169	>340 µM
C=C(C)[C@@H]1CCc2c(O)c(O)c(=O)cc(C)c2C1	HFF	AD169	2.66 µM
Nc1nc2c(ncn2COC(CO)CO)c(=O)[nH]1	MRC-5	DAVIS	4.9 µM
[O-][n+]1onc2ncnc(N3CC[N+]4(CC3)CC[N+]3(CCN(c5ncnc6no[n+]([O-])c56)CC3)CC4)c21	HELF	AD169	0.85 µM
CCCCCCCCc1cc2cn(CCC(C)C)c(=O)nc2o1	HEL	DAVIS	>200 µM
COC(=O)C(C)NP(=O)(OC[C@@H]1C/C1=C/n1cc(N)c(=O)[nH]c1=O)Oc1ccccc1	HFF	TOWNE	1.5 µM
c1csc(-c2cc3ccccn3c2)c1	MRC-5	AD169	12 µM
CCCCN1C(=O)c2ccccc2N(Cc2ccccc2)S1(=O)=O	MRC-5	AD169	7.6 µM
O=[N+]([O-])c1cccc(-c2cc3ccccn3c2)c1	MRC-5	AD169	>10 µM
Nc1ccn(C[C@@H](CO)OCP(=O)(O)O)c(=O)n1	HEL	Clinical isolates	0.25 µM
O=C(NCc1ccc(Cl)cc1)c1c[nH]c2c(F)cc(CCCO)cc2c1=O		AD169	0.7 µM
Nc1ccn(C[C@H]2COP(=O)(O)CO2)c(=O)n1	HEL	DAVIS	0.72 µM
CCCCCCCCc1cc2cn(C3CCCC3)c(=O)nc2o1	HEL	AD169	>20 µM
Fc1ccc2cc(-c3ccccc3)cn2c1	MRC-5	AD169	>100 µM
Nc1ncnc2c1ncn2/C=C1/CC1(CO)CO	HFF	TOWNE	0.33 µM
CCCCCCCCc1cc2cnc(OCCC(C)C)nc2o1	HEL	AD169	>5 µM
CN(C)c1cccc2c(S(=O)(=O)Nc3ccc(NC(=O)C(C)(C)CO)cc3)cccc12		V2 (ganciclovir-resistant)	0.3 µM
CCCCCCc1cc2cn(C3CCCO3)c(=O)nc2o1	HEL	DAVIS	>50 µM
c1ccn2cc(-c3ccsc3)cc2c1	MRC-5	AD169	>100 µM
COC(=O)C(C)NP(=O)(OC[C@@H]1C/C1=C/n1cc(C)c(=O)[nH]c1=O)Oc1ccccc1	HFF	TOWNE	>100 µM
Nc1ccn(C[C@@H](CO)OCP(=O)(O)O)c(=O)n1	HEL	DAVIS	0.36 µM
Nc1ccn(C[C@H]2COP(=O)(O)CO2)c(=O)n1.O=C(O)P(=O)(O)O	MRC-5	AD169 (ganciclovir foscarnet-susceptible)	1 µM
c1ccc(-c2cc3ccccn3c2)cc1	MRC-5	AD169	7–19 µM
O=C(NCCc1ccccc1)C1=Cc2ccncc2CC1	MRC-5	C8805-37	6.5 µM
CCCCCCc1cc2cn(C3CCCC3)c(=O)nc2o1	HEL	DAVIS	>50 µM
Nc1ncnc2c1ncn2[C@@H]1C=C(CO)[C@@H](O)[C@H]1O	HEL	DAVIS	0.15 µg/mL
CCCCc1ccc2cc(-c3ccccc3)cn2c1	MRC-5	AD169	>100 µM
OC[C@H]1O[C@@H](n2c(Br)nc3cc(Cl)c(Cl)cc32)[C@H](O)[C@@H]1O		R56	7.6 µM
Nc1nc2c(ncn2COC(CO)CO)c(=O)[nH]1		17517 (DHPG-S)	6.8 µM
Nc1nc2c(ncn2COCCO)c(=O)[nH]1	HFF	AD169	11 µM
Nc1nc2c(ncn2COC(CO)CO)c(=O)[nH]1	WI-38	MAJOR	4.8 µM
Nc1ncnc2c1ncn2C=C1CC1CO		VR6200 (ganciclovir-susceptible)	1.6 µM
c1ccc(-c2cc3ccccn3c2)nc1	MRC-5	AD169	>100 µM
Nc1n[nH]c(=O)c2c1ccn2[C@@H]1O[C@H](CO)[C@@H](O)[C@@H]1O		TOWNE	>100 µM
Nc1ccn(C[C@H]2COP(=O)(O)CO2)c(=O)n1	MRC-5	PAAR	0.53 µM
OC[C@H]1O[C@@H](n2c(Br)nc3cc(Cl)c(Cl)cc32)[C@H](O)[C@@H]1O	MRC-5	1038RA	6 µM
CSc1nnnc2c1ncn2[C@@H]1O[C@H](CO)[C@@H](O)[C@H]1O	HFF		16 µM
CC(C)Oc1ccccc1CNC(=O)c1ccc2cnccc2n1	MRC-5	AD169	0.03 µM
Nc1nc2c(ncn2COC(CO)CO)c(=O)[nH]1	HFF	AD169	3.2 µM
Nc1nc2c(ncn2COC(CO)COP(=O)(O)O)c(=O)[nH]1	MRC-5	AD169	11.7 µM
CCCCCCCc1cc2cn(CCC(C)C)c(=O)nc2o1	HEL	AD169	20 µM
CC(C)=CCc1ccc(O)c(=O)cc1C(C)C	HFF	AD169	0.45 µM
CCCCCCCCCCCCCCCCOCCCOP(=O)(O)CO[C@H](CO)Cn1ccc(N)nc1=O	MRC-5	C9208/3-3-1	0.001 µM
OC[C@H]1O[C@@H](n2cnc3cnnnc32)[C@H](O)[C@@H]1O	HFF		40 µM

A second listing of 5 rows from above:

{"smiles": "OC[C@H]1O[C@@H](n2cnc3cnnnc32)[C@H](O)[C@@H]1O", "cell line": "HFF", "result": "40 µM"}
{"smiles": "c1ccn2cc(-c3ccsc3)cc2c1", "cell line": "MRC-5", "strain or isolate": "AD169", "result": ">100 µM"}
{"smiles": "Nc1ccn(C[C@H]2COP(=O)(O)CO2)c(=O)n1", "cell line": "MRC-5", "strain or isolate": "PAAR", "result": "0.53 µM"}
{"smiles": "CC(C)c1ccc(O)c(O)c(=O)c1", "cell line": "HFF", "strain or isolate": "AD169", "result": "1.3 µM"}
{"smiles": "COc1ccccc1CNC(=O)C1=Cc2ccncc2CC1", "cell line": "MRC-5", "strain or isolate": "D16", "result": "23.7 µM"}